Laboratory results taken from US20240122867A1, “CORONAL PROTEIN-COATED NANOPARTICLES AND USES THEREOF” (UNIVERSITY OF CENTRAL FLORIDA RESEARCH FOUNDATION, INC., priority 2021, published 2024).

Tested on: coronal proteins on NPs
Design: species or system mouse
Details: for V5 Sera_Nanoparticles Quantitative Value (Normalized Total Spectra): HBPE-NPs incubated 1 h with IAV day 5 (V5) mouse sera, 20:1 NP:sera, centrifuged and washed; for V5 Sera Alone (Control) Quantitative Value (Normalized Total Spectra): IAV day 5 (V5) mouse sera alone, no NPs (sera-only control)

| Molecule | V5 Sera_Nanoparticles Quantitative Value (Normalized Total Spectra) | V5 Sera Alone (Control) Quantitative Value (Normalized Total Spectra) |
| --- | --- | --- |
| Fetuin-B (protein, UniProt Q9QXC1 19-388, looked up) Fetuin-B: RSPPAPPLPQRPLSPLHPLGCNDSEVLAVAGFALQNINRDQKDGYMLSLNRVHDVREHYQEDMGSLFYLTLDVLETDCHVLSRKAQKDCKPRMFYESVYGQCKAMFHINKPRRVLYLPAYNCTLRPVSKRKTHTTCPDCPSPIDLSNPSALEAATESLAKFNSKSPSKKYELVKVTKAMNQWVSGPAYYVEYLIKEAPCTKSQASCSLQHSDSEPVGICQGSTVQSSLRHVPLIQPVEKSVTVTCEFFESQAQVPGDENPAVTQGPQKLPQKNTAPTSSPSVTAPRGSIQHLPELDDEKPEESKGGSPEEAFPVQLDLTTNPQGDTLDVSFLYLEPGDKKLVVLPFPGKEQRSAECPGPEKENNPLVLPP | 8.7034 | 10.178 |
| Properdin (protein, UniProt P11680 23-464, looked up) Properdin: SDPVLCFTQYEESSGRCKGLLGRDIRVEDCCLNAAYAFQEHDGGLCQACRSPQWSAWSLWGPCSVTCSEGSQLRHRRCVGRGGQCSENVAPGTLEWQLQACEDQPCCPEMGGWSEWGPWGPCSVTCSKGTQIRQRVCDNPAPKCGGHCPGEAQQSQACDTQKTCPTHGAWASWGPWSPCSGSCLGGAQEPKETRSRSCSAPAPSHQPPGKPCSGPAYEHKACSGLPPCPVAGGWGPWSPLSPCSVTCGLGQTLEQRTCDHPAPRHGGPFCAGDATRNQMCNKAVPCPVNGEWEAWGKWSDCSRLRMSINCEGTPGQQSRSRSCGGRKFNGKPCAGKLQDIRHCYNIHNCIMKGSWSQWSTWSLCTPPCSPNATRVRQRLCTPLLPKYPPTVSMVEGQGEKNVTFWGTPRPLCEALQGQKLVVEEKRSCLHVPVCKDPEEKKP | 8.7034 | 8.327 |
| Ig gamma-2B chain C region (protein, UniProt P01867 1-404, looked up) Immunoglobulin heavy constant …: KTTPPSVYPLAPGCGDTTGSSVTLGCLVKGYFPESVTVTWNSGSLSSSVHTFPALLQSGLYTMSSSVTVPSSTWPSQTVTCSVAHPASSTTVDKKLEPSGPISTINPCPPCKECHKCPAPNLEGGPSVFIFPPNIKDVLMISLTPKVTCVVVDVSEDDPDVQISWFVNNVEVHTAQTQTHREDYNSTIRVVSTLPIQHQDWMSGKEFKCKVNNKDLPSPIERTISKIKGLVRAPQVYILPPPAEQLSRKDVSLTCLVVGFNPGDISVEWTSNGHTEENYKDTAPVLDSDGSYFIYSKLNMKTSKWEKTDSFSCNVRHEGLKNYYLKKTISRSPGLDLDDICAEAKDGELDGLWTTITIFISLFLLSVCYSASVTLFKVKWIFSSVVELKQKISPDYRNMIGQGA | 8.7034 | 10.178 |
| Complement component C8 alpha chain (protein, UniProt Q8K182 31-587, looked up) Complement component C8 alpha …: AVTPQAVSCQLSDWYKWTDCFPCQDKKYRYRSLLQPSKFGGTICSGDIWDEASCDSPTPCLRQAQCGQDFQCRETGRCLKRHLVCNGDNDCLDGSDESDCEDVRVTEDDCHQYEPIPGSERAALGYNILTQEEAQSVYDAKYYGGQCETVYNGDWRKLRYDPTCERLYYGEDEKYFRKPYNFLKYHFEALADTSISSEFYDDANDLFFHIKNGKSHSAGVTVGVAPVKSPVSIEVTGSGSKASSFLNKLNKYNEKRYGFMRVSTKIQTAQFKMRRNNIVLDEGMLQSLMELPEQFNYGMYAKFINDYGTHYITSGTMGGIYEYVMVLDKEKMKTEGTTVDEVQKCIGGGIGIGIKDSTIEGVGISGEFCENSGDGDRDIRKKITGVEDIISRVQGGSSVWGSVLTHNSSAITYQSWGRSLKYNPVVIDFEMQPIYQLLRHTNLGPLETKRQNLRRALDQYLMEFNACRCGPCFNNGEPILDGTNCRCQCSMGRQGLACERTVIEGLKDFKAAGHWSCWSSWSECRGGSQERRRQCNNPPPKNGGTPCLGRNLQTQAC | 8.7034 | 3.7009 |
| Serum amyloid A-1 protein (protein, UniProt P05366 20-122, looked up) Serum amyloid A-1 protein: GFFSFVHEAFQGAGDMWRAYTDMKEANWKNSDKYFHARGNYDAAQRGPGGVWAAEKISDGREAFQEFFGRGHEDTIADQEANRHGRSGKDPNYYRPPGLPDKY | 7.6154 | 24.056 |
| Alpha-1-antitrypsin 1-5 (protein, UniProt Q00898 25-413, looked up) Alpha-1-antitrypsin 1-5: EDVQETDTSQKDQSPASHEIATNLGDFAISLYRELVHQSNTSNIFFSPVSIATAFAMLSLGSKGDTHTQILEGLQFNLTQTSEADIHNSFQHLLQTLNRPDSELQLSTGNGLFVNNDLKLVEKFLEEAKNHYQAEVFSVNFAESEEAKKVINDFVEKGTQGKIVEAVKKLEQDTVFVLANYILFKGKWKKPFDPENTKQAEFHVDESTTVKVPMMTLSGMLDVHHCSTLSSWVLLMDYAGNATAVFLLPDDGKMQHLEQTLNKELISKFLLNRRRRLAQIHIPRLSISGNYNLETLMSPLGITRIFNSGADLSGITEENAPLKLSQAVHKAVLTIDETGTEAAAATVLQGGFLSMPPILHFNRPFLFIIFEEHSQSPLFVGKVVDPTHK | 6.5275 | 21.28 |
| Carboxypeptidase N subunit 2 (protein, UniProt Q9DBB9 22-547, looked up) Carboxypeptidase N subunit 2: CPVGCDCFGREVFCSDEQLADIPPDIPPHITDIVFVETAFTTVRTRAFSGSPNLTKVVFLNTQVRHLEPDAFGGLPRLQDLEITGSPVSNLSAHIFSNLSSLEKLTLDFDRLAGLPEDLFCHMDILESLQLQGNQLRTLPGRLFQSLRDLRTLNLAQNLLTQLPKGAFQSLTGLQMLKLSNNMLARLPEGALGSLSSLQELFLDGNAITELSPHLFSQLFSLEMLWLQHNAICHLPVSLFSSLHNLTFLSLKDNALRTLPEGLFAHNQGLLHLSLSYNQLETIPEGAFTNLSRLVSLTLSHNAITDLPEHVFRNLEQLVKLSLDSNNLTALHPALFHNLSRLQLLNLSRNQLTTLPGGIFDTNYDLFNLALLGNPWQCDCHLSYLTSWLRLYNNQISNTHTFCAGPAYLKGQLVPNLKQEQLICPVNPGHLSFRALGLDEGEPAGSWDLTVEGRAAHSQCAYSNPEGTVLLACEESRCRWLNIQLSSRDGSDSAAMVYNSSQEWGLRSSCGLLRVTVSIEAPAAGP | 6.5275 | 7.4018 |
| Coagulation factor X (protein, UniProt O88947 41-481, looked up) Coagulation factor X: ANSFFEEFKKGNLERECMEEICSYEEVREIFEDDEKTKEYWTKYKDGDQCESSPCQNQGACRDGIGGYTCTCSEGFEGKNCELFVRKLCRLDNGDCDQFCREEQNSVVCSCASGYFLGNDGKSCISTAPFPCGKITTGRRKRSVALNTSDSELDLEDALLDEDFLSPTENPIELLNLNETQPERSSDDLVRIVGGRECKDGECPWQALLINEDNEGFCGGTILNEFYILTAAHCLHQARRFKVRVGDRNTEKEEGNEMVHEVDVVIKHNKFQRDTYDYDIAVLRLKTPITFRMNVAPACLPQKDWAESTLMTQKTGIVSGFGRTHEKGRQSNILKMLEVPYVDRNTCKLSTSFSITQNMFCAGYEAKLEDACQGDSGGPHVTRFKNTYYVTGIVSWGEGCARKGKYGIYTKVTTFLKWIDRSMKARVGPTAETPRTAGPPN | 6.5275 | 4.6261 |
| Carbonic anhydrase 1 (protein, UniProt P13634 2-261, looked up) Carbonic anhydrase 1: ASADWGYGSENGPDQWSKLYPIANGNNQSPIDIKTSEANHDSSLKPLSISYNPATAKEIVNVGHSFHVIFDDSSNQSVLKGGPLADSYRLTQFHFHWGNSNDHGSEHTVDGTRYSGELHLVHWNSAKYSSASEAISKADGLAILGVLMKVGPANPSLQKVLDALNSVKTKGKRAPFTNFDPSSLLPSSLDYWTYFGSLTHPPLHESVTWVICKDSISLSPEQLAQLRGLLSSAEGEPAVPVLSNHRPPQPLKGRTVRASF | 6.5275 | 0 |
